Results of unrelated studies side by side (data: NIAID ChemDB).

Common to all: growth or infection tests; agent: Herpes simplex virus 2; read-out: EC50

Lines come from different laboratories, so protocols vary.

smiles | method | cell line | strain or isolate | value
Nc1ncnc2c1ncn2C[C@@H](CO)OCP(=O)(O)O | cytopathic effect | HEL | PCV-resistant/A | 0.062 µg/mL
CC(C)(C)C(=O)OCOC(=O)CN(CC(=O)OCOC(=O)C(C)(C)C)P(=O)(OC[C@H]1O[C@@H](n2cnc3c(Cl)nccc32)C[C@@H]1O)Oc1ccccc1 |  | HEL | G | >20 µM
O=c1[nH]cnc2c1ncn2[C@H]1O[C@@H](CO)C[C@H]1F |  | VERO |  | >100 µM
Nc1ccnc2c1ncn2[C@H]1C[C@H](O)[C@@H](COP(=O)(O)COC(=O)[C@@H](N)CC(=O)O)O1 |  | HEL | G | >100 µM
Nc1nc2c(ncn2CCC(CO)CO)c(=O)[nH]1 | cytopathic effect | HEL | PCV-resistant/A | 11 µg/mL
CCO/N=C/c1ccc(OCCC2CCN(c3ccc(C)nn3)CC2)cc1 | virus yield | KB | HGP | 0.0021 µM
Nc1ncnc2c1ccn2[C@H]1C[C@H](O)[C@@H](CO)O1 |  | HEL | G | 69 µM
O=c1[nH]c(=O)n([C@H]2C[C@H](O)[C@@H](CO)O2)c[c]1[Hg+].O[C@H](C[S-])[C@H](O)CS | virus yield | HELA TK- | HG-25 | 0.602 µg/mL
Nc1nc(=O)n([C@H]2O[C@@H](CO)C[C@H]2F)cc1I |  | VERO |  | >100 µM
O=C(O)P(=O)(O)O | cytopathic effect | HEL | G | 12.5 µg/mL
O=c1[nH]c(=O)n([C@H]2C[C@H](O)[C@@H](CO)O2)c[c]1[Hg+].OCC(O)C[S-] | virus yield | KB | HG-25 | 0.05 µg/mL
O=c1[nH]c(=O)n([C@H]2O[C@@H](CO)C[C@H]2F)cc1Br |  | VERO |  | >100 µM
Nc1ccnc2c1ncn2C1CC(O)C(CO)O1 |  | HEL | G | >100 µM
NC(CS)C(=O)O.O=c1[nH]c(=O)n([C@H]2C[C@H](O)[C@@H](CO)O2)c[c]1[Hg+] | virus yield | KB | HG-25 | 0.176 µg/mL
Nc1nc2c(ncn2COC(CO)CO)c(=O)[nH]1 |  | HEL | G | 0.02 µM
O=c1ccn([C@@H]2O[C@H](CO)C[C@@H]2F)c(=O)[nH]1 |  | VERO |  | >100 µM

2 of the rows above, restated:

smiles | method | cell line | strain or isolate | value
O=c1ccn([C@@H]2O[C@H](CO)C[C@@H]2F)c(=O)[nH]1 |  | VERO |  | >100 µM
Nc1nc2c(ncn2CCC(CO)CO)c(=O)[nH]1 | cytopathic effect | HEL | PCV-resistant/A | 11 µg/mL

ECn is the concentration giving n% inhibition of infection, replication or growth. Blank or dashed fields: not listed here.